Data reported in patent US6410594B1, “Substituted cyclopentane compounds useful as neuraminidase inhibitors” (Biocryst Pharmaceuticals, Inc., priority 1996, dated 2002).

Chains of the proteins cited; added tags and fusions are not shown. Residues count along the entry.
UniProt P03472, 83-470 limits assumed: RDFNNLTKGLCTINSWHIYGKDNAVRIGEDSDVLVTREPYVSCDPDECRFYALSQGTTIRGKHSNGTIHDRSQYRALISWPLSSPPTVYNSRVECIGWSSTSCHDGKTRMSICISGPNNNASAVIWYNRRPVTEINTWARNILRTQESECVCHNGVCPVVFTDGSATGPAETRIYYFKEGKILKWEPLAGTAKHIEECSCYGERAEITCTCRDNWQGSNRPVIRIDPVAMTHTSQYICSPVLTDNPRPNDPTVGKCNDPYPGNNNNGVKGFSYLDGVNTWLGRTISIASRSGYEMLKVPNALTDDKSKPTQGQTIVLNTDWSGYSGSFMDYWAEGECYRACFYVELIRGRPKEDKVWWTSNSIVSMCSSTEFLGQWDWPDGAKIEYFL

These substances were tested against H1N9 Influenza Neuraminidase (Influenza A virus, UniProt P03472). Conditions: pH 6.5; read-out: Inhibition of H1N9 Influenza Neuraminidase IC50.
Assay type: biochemical, influenza virus (H1N9 strain)
With “t-3-{[(Amino)(imino)methyl]amino}-c-4-[(diethylaminocarbonyl)(methylcarbonylamino)methyl]-t-1-hydroxycyclopentan-r-carboxylic acid trifluoroacetic acid (3:5) [Example 21]” the IC50 was 1.6 µM. In the case of “c-3-{[(Amino)(imino)methyl]amino}-t-4-[(di-n-propylaminocarbonyl)(methylcarbonylamino)-methyl]-t-1-hydroxycyclopentan-r-carboxylic acid trifluoroacetic acid (1:1) (isomer A at C-6) [Example 24]”, the IC50 is reported as 4.9 µM. “c-3-{[(Amino)(imino)methyl]amino}-t-4-[(di-n-propylaminocarbonyl)(methylcarbonylamino)-methyl]-t-1-hydroxycyclopentan-r-carboxylic acid trifluoroacetic acid (1:1) (isomer B at C-6) [Example 25]” showed an IC50 of 2300 µM. With “3β-{[(Amino)(imino)methyl]amino}-4α-[(diethylaminocarbonyl)(methylcarbonylamino)methyl]-cyclopentancarboxylic acid (isomer A at C-6) [Example 26]” the IC50 was 0.041 µM.
